Laboratory results from publication PMC4929490.
For at least one entry, the source does not settle the construct or the ends of the probe. No signal at the amounts used counts as a negative.

Target: GST-TaRIM1 (Triticum aestivum (line CI12633)) (UniProt A0A182BBB2)
Test: EMSA
Details: ~2 ug protein in binding buffer (composition, salt and pH not given), on ice 6 h, 8% polyacrylamide gel, 100 V 30 min, ethidium bromide stain, recombinant protein, protein details: N-terminal GST (pGEX-4T-1)

Row | Sequence | binding result | binding result (strongest binding of the 5 MBS probes)
1 | AATTCATAAGAGCCGCCACTCATAAGAGCCGCCACTCCC (double strand) [GCC-box] | no binding | 
2 | AGTCGACCCACCTACCGCGGATCCTCGACCCACCTACCGTCGATC (double strand) [ACI (AC)] |  | binds
3 | AGTCGACGTGGATAATGGATCCTCGAGTGGATAATTCGATC (double strand) [St1R] | binds | 
4 | TGCCAGTCGCAGTTAGACGTGCCAGTCGCAGTTAGACGTGC / CACGTCTAACTGCGACTGGCACGTCTAACTGCGACTGGCA [MBS1-Bz] | binds | 
